# Paper PMC8869097, “Benzothiazole Derivatives as Multifunctional Antioxidant Agents for Skin Damage: Structure–Activity Relationship of a Scaffold Bearing a Five-Membered Ring System” (Antioxidants, 2022)
# Key:
# SK-Mel 5 cells = assay: Antiproliferative activity; assay type: cell-based, human; settings: IC50 HEK 293 / IC50 SK-Mel5
# Experimental: (§1) A stock solution of the compounds (20 mM in DMSO) was prepared and stored at −18 °C. Then, the compounds were diluted in the cell culture medium and tested starting with the 100 µM concentration as the upper limit. The application of equation (6) allowed to obtain the values of IC50. C1 − [50 − N1%/N2% − N1%] − (C1 − C2),(6) where C1 is the concentration of the compound which inhibits cell proliferation by more than 50%; C2 is the concentration of the compound which inhibits cell proliferation below 50%; N1% represents the number of cells (expressed as a percentage of control without compound) obtained in the presence of C1 and N2% represents the number of cells (as a percentage of control without compound) obtained in the presence of C2.
# (§2) Finally, the compounds of this series of benzothiazole derivatives were tested to evaluate their antiproliferative activity in vitro against human T-cell leukemia cell line (CEM), human cervical carcinoma cells (HeLa), human pancreas cancer cells (Mia Paca-2) and human melanoma cells (SK-Mel 5). Non-cancerous HEK293T cells (Normal Kidney Epithelial Cells) were chosen as a control for cytotoxicity and/or selectivity. The results obtained have been summarized in Table 5 (data shown only for the active compounds) and are expressed as IC50 values in μM. The selectivity index (SI) was also reported, determined by comparing the values of IC50 (μM) obtained on healthy cells (HEK 293) with that obtained on tumor cells (CEM, HeLa, Mia-Paca-2 and SK- Mel 5) (Table 5).
# CEM cells = assay: Antiproliferative activity; assay type: cell-based, human; settings: IC50 HEK 293 / IC50 CEM
# Experimental: Human cervical carcinoma (HeLa) and human CD4+T-lymphoblast (CEM) cells were obtained from ATCC (Middlesex, UK). Human pancreatic carcinoma (Mia-Paca 2) cells were kindly provided by Prof. Anna Karlsson (Karolinska Institute, Stockholm, Sweden). All cell lines were grown in Dulbecco’s modified Eagle’s medium (DMEM; Gibco, Carlsbad, CA, USA), supplemented with 10% fetal bovine serum (FBS, Gibso), 0.01M Hepes (Gibco) and 1 mM sodium pyruvate (Gibco) in a humidified 5% CO2 incubator at 37 °C.
# The cell suspensions of CEM, HeLa and Mia-Paca2 were treated with increasing concentrations of the selected compounds, following the protocol previously reported.
# as §1
# as §2, with “Non-cancerous HEK293T cells (Normal Kidney Epithelial Cells) were chosen as a control for cytotoxicity and/or selectivity.” left out
smiles,measurement,setting,value
"c1c[nH]c(-c2nc3ccccc3s2)c1 [Compound 8a, 2-(1H-Pyrrol-2-Yl)benzothiazole]",SI SK-Mel5,SK-Mel 5 cells,1.66
"c1coc(-c2nc3ccccc3s2)c1 [Compound 9a, 2-(Furan-2-Yl)benzothiazole]",SI CEM,CEM cells,2.44
same,SI SK-Mel5,SK-Mel 5 cells,1.02
"c1csc(-c2nc3ccccc3s2)c1 [Compound 10a, 2-(Thiophen-2-Yl)benzothiazole]",SI CEM,CEM cells,2.22
same,SI SK-Mel5,SK-Mel 5 cells,2.00
"c1c[nH]c(-c2nc3ccccc3[nH]2)c1 [Lead 10, reference compound]",SI CEM,CEM cells,2.21
same,SI SK-Mel5,SK-Mel 5 cells,3.20
